{
  "source": "paper PMC10216065",
  "about": "(Biomolecules, 2023)",
  "binders": {"B1": {"name": "Mycobacterium tuberculosis SufU (Rv1465), tag state not told (natural protein)", "chain": "GSHMVTLRLEQIYQDVILDHYKHPQHRGLREPFGAQVYHVNPICGDEVTLRVALSEDGTRVTDVSYDGQGCSISQAATSVLTEQVIGQRVPRALNIVDAFTEMVSSRGTVPGDEDVLGDGVAFAGVAKYPARVKCALLGWMAFKDALAQASEAFEEVTDERNQRTG"}},
  "biological_target": "Mycobacterium tuberculosis SufS (Rv1464) (Mycobacterium tuberculosis)",
  "test": "pull-down",
  "data": [
    {"binder": "B1", "values": [
      {"measurement": "binding result", "value": "binds"}
    ]}
  ]
}
